A mixed list of measured activities; the numbers were collected in NIAID ChemDB.

All rows: whole-cell or culture tests; species: Mycobacterium avium complex; read-out: MIC50

MIC50, MIC90 and the like: level of inhibition, or share of isolates inhibited.

SMILES,strain,value
C=Cn1cc(C(=O)O)c(=O)c2cc([N+](=O)[O-])c(NCCF)cc21,,>200 µM
N[C@@H]1CN(c2c(F)cc3c(=O)c(C(=O)O)cn([C@@H]4C[C@@H]4F)c3c2Cl)CC12CC2,18 strains,1.56 µg/mL
C[C@H]1COc2c(N3CCN(C)CC3)c(F)cc3c(=O)c(C(=O)O)cn1c23,25 isolates,8 µg/mL
O=C(O)c1cn(C2CCCCC2)c2cc(NC3CCCCC3)c([N+](=O)[O-])cc2c1=O,,>200 µM
O[C@H](c1cc2ccc(C(F)(F)F)cc2c2cc(C(F)(F)F)ccc12)[C@H]1CCCCN1,24 clinical isolates,4 µg/mL
CC1CN(c2cc3c(cc2F)c(=O)c(C(=O)O)cn3-c2ccc(F)cc2F)CCN1,25 isolates,8 µg/mL
CC[C@H]1OC(=O)[C@H](C)[C@@H](O[C@H]2C[C@@](C)(OC)[C@@H](O)[C@H](C)O2)[C@H](C)[C@@H](O[C@@H]2O[C@H](C)C[C@H](N(C)C)[C@H]2O)[C@](C)(OC)C[C@@H](C)C(=O)[C@H](C)[C@@H](O)[C@]1(C)O,28 strains,2 µg/mL
CO[C@H]1/C=C/O[C@@]2(C)Oc3c(C)c(O)c4c(O)c(c5c(c4c3C2=O)NC2(CCN(CC(C)C)CC2)N=5)=NC(=O)/C(C)=C\C=C\[C@H](C)[C@H](O)[C@@H](C)[C@@H](O)[C@@H](C)[C@H](OC(C)=O)[C@@H]1C,211 strains,0.75 µg/mL
CC[C@H]1OC(=O)C[C@@H](O)[C@H](C)[C@@H](O[C@@H]2O[C@H](C)[C@H](O)[C@H](N(C)C)[C@H]2O)[C@@H](CC=O)C[C@@H](C)C(=O)/C=C/C(C)=C/[C@@H]1C,28 strains,≥64 µg/mL
CCCCN(CCCC)C[C@@H](O)c1cc2c(Cl)cc(Cl)cc2c2cc(C(F)(F)F)ccc12,24 clinical isolates,8 µg/mL
CC[C@H]1OC(=O)[C@H](C)[C@@H](O[C@H]2C[C@@](C)(OC)[C@@H](O)[C@H](C)O2)[C@H](C)[C@@H](O[C@@H]2O[C@H](C)C[C@H](N(C)C)[C@H]2O)[C@](C)(OC)C[C@@H](C)C(=O)[C@H](C)[C@@H](O)[C@]1(C)O,20 strains,8 µg/mL
CN[C@@H]1[C@H](O[C@H]2[C@H](O[C@H]3[C@H](O)[C@@H](O)[C@H](N=C(N)N)[C@@H](O)[C@@H]3N=C(N)N)O[C@@H](C)[C@]2(O)C=O)O[C@@H](CO)[C@H](O)[C@H]1O,25 isolates,16 µg/mL
O=C(O)c1cn(C2CCC2)c2cc(NC3CCC3)c([N+](=O)[O-])cc2c1=O,,75.5 µM
COc1c(N2CCNC(C)C2)c(F)cc2c(=O)c(C(=O)O)cn(C3CC3)c12,18 strains,1.56 µg/mL
CC[C@H]1OC(=O)[C@H](C)[C@@H](O[C@H]2C[C@@](C)(OC)[C@@H](O)[C@H](C)O2)[C@H](C)[C@@H](O[C@@H]2O[C@H](C)C[C@H](N(C)C)[C@H]2O)[C@](C)(O)C[C@@H](C)/C(=N\OCOCCOC)[C@H](C)[C@@H](O)[C@]1(C)O,28 strains,8 µg/mL
Nc1cc2[nH]cc(C(=O)O)c(=O)c2cc1[N+](=O)[O-],,>200 µM
NC[C@H]1O[C@H](O[C@H]2[C@H](O)[C@@H](O[C@H]3O[C@H](CO)[C@@H](O)[C@H](N)[C@H]3O)[C@H](N)C[C@@H]2N)[C@H](O)[C@@H](O)[C@@H]1O,25 isolates,8 µg/mL
CC[C@H]1OC(=O)C[C@@H](O)[C@H](C)[C@@H](O[C@@H]2O[C@H](C)[C@H](O)[C@H](N(C)C)[C@H]2O)[C@@H](CCOc2ccccc2)C[C@@H](C)C(=O)/C=C/C(C)=C/[C@@H]1COC1O[C@H](C)[C@@H](O)[C@@H](OC)[C@H]1OC,28 strains,≥64 µg/mL
NC[C@H]1O[C@H](O[C@H]2[C@H](O)[C@@H](O[C@H]3O[C@H](CO)[C@@H](O)[C@H](N)[C@H]3O)[C@H](N)C[C@@H]2N)[C@H](N)C[C@@H]1O,25 isolates,16 µg/mL
CC(C)Nc1cc2c(cc1[N+](=O)[O-])c(=O)c(C(=O)O)cn2C(C)C,,>200 µM
O[C@@H](c1cc2ccc(C(F)(F)F)cc2c2cc(C(F)(F)F)ccc12)[C@@H]1CCCCN1,24 clinical isolates,2 µg/mL
CC[C@H]1OC(=O)[C@H](C)[C@@H](O[C@H]2C[C@@](C)(OC)[C@@H](O)[C@H](C)O2)[C@H](C)[C@@H](O[C@@H]2O[C@H](C)C[C@H](N(C)C)[C@H]2O)[C@](C)(OC)C[C@@H](C)C(=O)[C@H](C)[C@@H](O)[C@]1(C)O,25 isolates,4 µg/mL
O=C(O)c1cn(CCF)c2cc(NCCF)c([N+](=O)[O-])cc2c1=O,,26 µM
CC(=O)NC[C@H]1CN(c2ccc(N3CCN(Cc4ccc([N+](=O)[O-])o4)CC3)c(F)c2)C(=O)O1,31 isolates,8 µg/mL
CN1CCN(c2c(F)cc3c(=O)c(C(=O)O)cn(CCF)c3c2F)CC1,,12.5 µg/mL

Repeating the first 2 entries:

C=Cn1cc(C(=O)O)c(=O)c2cc([N+](=O)[O-])c(NCCF)cc21 ; value: >200 µM
N[C@@H]1CN(c2c(F)cc3c(=O)c(C(=O)O)cn([C@@H]4C[C@@H]4F)c3c2Cl)CC12CC2 ; strain: 18 strains ; value: 1.56 µg/mL

An empty or dashed field is not shown. Conditions beyond the fields shown may differ between rows.